Laboratory results as given in article PMC4101495, “Prion Fragment Peptides Are Digested with Membrane Type Matrix Metalloproteinases and Acquire Enzyme Resistance through Cu^2+-Binding” (2014).
Entries after “also recorded” stand apart in the source; their conditions may differ.

Chains of the proteins cited; added tags and fusions are not shown. Residues count along the entry.
UniProt P51512, 29-345 limits assumed: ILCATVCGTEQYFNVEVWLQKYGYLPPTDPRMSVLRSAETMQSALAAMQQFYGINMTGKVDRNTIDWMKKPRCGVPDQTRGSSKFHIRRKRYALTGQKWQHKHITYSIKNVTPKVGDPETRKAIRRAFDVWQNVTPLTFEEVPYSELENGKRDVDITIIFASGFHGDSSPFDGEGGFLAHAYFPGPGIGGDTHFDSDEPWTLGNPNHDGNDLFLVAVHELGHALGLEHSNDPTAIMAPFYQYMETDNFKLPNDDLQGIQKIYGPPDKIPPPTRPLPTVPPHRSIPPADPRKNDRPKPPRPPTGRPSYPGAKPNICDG
UniProt P09237, 18-267 limits assumed: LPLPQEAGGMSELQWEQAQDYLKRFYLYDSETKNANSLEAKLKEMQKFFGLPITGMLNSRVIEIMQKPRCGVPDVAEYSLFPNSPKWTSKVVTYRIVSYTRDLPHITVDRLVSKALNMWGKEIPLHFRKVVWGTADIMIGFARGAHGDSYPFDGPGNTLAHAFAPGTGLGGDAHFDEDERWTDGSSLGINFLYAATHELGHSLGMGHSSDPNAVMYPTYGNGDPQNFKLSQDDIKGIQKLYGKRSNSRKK

Assays:
[1] = Digestion of hPrP fragment peptides by human serum (control); details: peptide 0.1 mM, 37 °C, 1 day, Tris-HCl pH 7.5 assay buffer, HPLC-UV, LC-ESI-MS
recombinant MT1-MMP = recombinant MT1-MMP (Homo sapiens, UniProt P50281); experiment: Digestion of hPrP fragment peptides by recombinant MT1-MMP, with or without Cu^2+; details: peptide 0.1 mM, 37 °C, 1 day; for digestion (cleavage) by MT1-MMP / cleavage site by MT1-MMP: absence of Cu^2+; for digestion (cleavage) by MT1-MMP: 50 mM Tris-HCl pH 7.5, 150 mM NaCl, 10 mM CaCl2, 5 mM ZnCl2, 0.005% Briji 35, 3 mM NaN3; for digestion (cleavage) by MT1-MMP / effect of Cu^2+ on cleavage by MT1-MMP: HPLC-UV, LC-ESI-MS; for cleavage site by MT1-MMP / effect of Cu^2+ on cleavage by MT1-MMP: Tris-HCl pH 7.5; for cleavage site by MT1-MMP: ESI-MS and LC-ESI-MS; for effect of Cu^2+ on cleavage by MT1-MMP: presence of Cu^2+ (two equivalents per His residue, final 0 to 0.8 mM)
recombinant MT3-MMP = recombinant MT3-MMP (Homo sapiens, UniProt P51512); experiment: Digestion of hPrP fragment peptides by recombinant MT3-MMP, with or without Cu^2+; details: peptide 0.1 mM, 37 °C, 1 day, LC-ESI-MS; for digestion (cleavage) by MT3-MMP: 50 mM Tris-HCl pH 7.5, 150 mM NaCl, 10 mM CaCl2, 5 mM ZnCl2, 0.005% Briji 35, 3 mM NaN3
Recombinant MMP-7 = Recombinant MMP-7 (Homo sapiens, UniProt P09237); experiment: Digestion of hPrP fragment peptides by recombinant MMP-7 (control), with or without Cu^2+; details: peptide 0.1 mM, 37 °C, 1 day, LC-ESI-MS; for digestion (cleavage) by MMP-7: 50 mM Tris-HCl pH 7.5, 150 mM NaCl, 10 mM CaCl2, 5 mM ZnCl2, 0.005% Briji 35, 3 mM NaN3
[2] = absence of Cu^2+, Tris-HCl pH 7.5
[3] = presence of Cu^2+ (two equivalents per His residue, final 0 to 0.8 mM), Tris-HCl pH 7.5, HPLC-UV

SMILES	digestion (cleavage) by human serum (HS) [1]	digestion (cleavage) by MT1-MMP (recombinant MT1-MMP)	digestion (cleavage) by MT3-MMP (recombinant MT3-MMP; absence of Cu^2+, HPLC-UV)	digestion (cleavage) by MMP-7 (Recombinant MMP-7; absence of Cu^2+, HPLC-UV)	effect of Cu^2+ on cleavage by MT1-MMP (recombinant MT1-MMP)	further results
C[C@@H](O)[C@H](NC(=O)CNC(=O)CNC(=O)CN)C(=O)N[C@@H](Cc1c[nH]cn1)C(=O)N[C@@H](CO)C(=O)N[C@@H](CCC(N)=O)C(=O)N[C@@H](Cc1c[nH]c2ccccc12)C(=O)N[C@@H](CC(N)=O)C(=O)N[C@@H](CCCCN)C(=O)N1CCC[C@H]1C(=O)N[C@@H](CO)C(=O)N[C@@H](CCCCN)C(=O)N1CCC[C@H]1C(=O)N[C@@H](CCCCN)C(=O)O	not digested	not digested	not digested	not digested		
CC[C@H](C)[C@H](NC(=O)[C@@H](NC(=O)[C@@H]1CCCN1C(=O)[C@H](CCCNC(=N)N)NC(=O)[C@H](CO)NC(=O)[C@H](CCSC)NC(=O)[C@H](C)NC(=O)[C@H](CO)NC(=O)CNC(=O)[C@H](CC(C)C)NC(=O)[C@H](CCSC)NC(=O)[C@H](Cc1ccc(O)cc1)NC(=O)CNC(=O)CNC(=O)[C@H](CC(C)C)NC(=O)CNC(=O)CNC(=O)[C@@H](NC(=O)[C@@H](NC(=O)[C@H](C)NC(=O)CN)C(C)C)C(C)C)[C@@H](C)CC)C(=O)N[C@@H](Cc1c[nH]cn1)C(=O)N[C@@H](Cc1ccccc1)C(=O)NCC(=O)N[C@@H](CO)C(=O)N[C@@H](CC(=O)O)C(=O)N[C@@H](Cc1ccc(O)cc1)C(=O)N[C@@H](CCC(=O)O)C(=O)N[C@@H](CC(=O)O)C(=O)N[C@@H](CCCNC(=N)N)C(=O)N[C@@H](Cc1ccc(O)cc1)C(=O)N[C@@H](Cc1ccc(O)cc1)C(=O)N[C@@H](CCCNC(=N)N)C(=O)N[C@@H](CCC(=O)O)C(=O)N[C@@H](CC(N)=O)C(=O)N[C@@H](CCSC)C(=O)N[C@@H](Cc1c[nH]cn1)C(=O)N[C@@H](CCCNC(=N)N)C(=O)N[C@@H](Cc1ccc(O)cc1)C(=O)N1CCC[C@H]1C(=O)N[C@@H](CC(N)=O)C(=O)N[C@@H](CCC(N)=O)C(=O)N[C@H](C(=O)N[C@@H](Cc1ccc(O)cc1)C(=O)N[C@@H](Cc1ccc(O)cc1)C(=O)N[C@@H](CCCNC(=N)N)C(=O)N1CCC[C@H]1C(=O)N[C@@H](CCSC)C(=O)N[C@@H](CC(=O)O)C(=O)N[C@@H](CCC(=O)O)C(=O)O)C(C)C		digested			partially inhibited	cleavage site by MT1-MMP (recombinant MT1-MMP): ^127Gly-Tyr^128; also recorded: ^137Pro-Ile^138
CC[C@H](C)[C@H](NC(=O)[C@@H](NC(=O)[C@@H]1CCCN1C(=O)[C@H](CCCNC(=N)N)NC(=O)[C@H](CO)NC(=O)[C@H](CCSC)NC(=O)[C@H](C)NC(=O)[C@@H](N)CO)[C@@H](C)CC)C(=O)N[C@@H](Cc1c[nH]cn1)C(=O)N[C@@H](Cc1ccccc1)C(=O)NCC(=O)N[C@@H](CO)C(=O)N[C@@H](CC(=O)O)C(=O)O	digested					
CSCC[C@H](NC(=O)[C@H](CC(N)=O)NC(=O)[C@H](CCC(=O)O)NC(=O)[C@H](CCCNC(=N)N)NC(=O)[C@H](Cc1ccc(O)cc1)NC(=O)[C@H](Cc1ccc(O)cc1)NC(=O)[C@@H](N)CCCNC(=N)N)C(=O)N[C@@H](Cc1c[nH]cn1)C(=O)N[C@@H](CCCNC(=N)N)C(=O)N[C@@H](Cc1ccc(O)cc1)C(=O)N1CCC[C@H]1C(=O)N[C@@H](CC(N)=O)C(=O)N[C@@H](CCC(N)=O)C(=O)N[C@H](C(=O)N[C@@H](Cc1ccc(O)cc1)C(=O)N[C@@H](Cc1ccc(O)cc1)C(=O)N[C@@H](CCCNC(=N)N)C(=O)N1CCC[C@H]1C(=O)N[C@@H](CCSC)C(=O)N[C@@H](CC(=O)O)C(=O)N[C@@H](CCC(=O)O)C(=O)O)C(C)C	not with MMP-7 and HS	digested	digested	not with MMP-7		
CSCC[C@H](NC(=O)[C@H](Cc1c[nH]cn1)NC(=O)[C@H](CCCCN)NC(=O)[C@H](CCSC)NC(=O)[C@H](CC(N)=O)NC(=O)[C@@H](N)[C@@H](C)O)C(=O)N[C@@H](C)C(=O)NCC(=O)N[C@@H](C)C(=O)N[C@@H](C)C(=O)N[C@@H](C)C(=O)N[C@@H](C)C(=O)NCC(=O)O						number of cleavage sites identified by MT3-MMP (recombinant MT3-MMP; [2]): one
CC[C@H](C)[C@H](N)C(=O)N[C@H](C(=O)N[C@@H](CCC(N)=O)C(=O)N[C@@H](Cc1ccc(O)cc1)C(=O)N[C@@H](CCC(=O)O)C(=O)N[C@@H](CCCNC(=N)N)C(=O)N[C@@H](CCC(=O)O)C(=O)N[C@@H](CO)C(=O)N[C@@H](CCC(N)=O)C(=O)N[C@@H](C)C(=O)N[C@@H](Cc1ccc(O)cc1)C(=O)N[C@@H](Cc1ccc(O)cc1)C(=O)N[C@@H](CCC(N)=O)C(=O)N[C@@H](CCCNC(=N)N)C(=O)NCC(=O)N[C@@H](CO)C(=O)O)[C@@H](C)O		cleaved	cleaved		inhibited	effect of Cu^2+ on cleavage by MT3-MMP (recombinant MT3-MMP; [3]): not inhibited
CSCC[C@H](NC(=O)[C@H](CC(N)=O)NC(=O)[C@H](CCC(=O)O)NC(=O)[C@H](CCCNC(=N)N)NC(=O)[C@@H](N)Cc1ccc(O)cc1)C(=O)N[C@@H](Cc1c[nH]cn1)C(=O)N[C@@H](CCCNC(=N)N)C(=O)N[C@@H](Cc1ccc(O)cc1)C(=O)N1CCC[C@H]1C(=O)N[C@@H](CC(N)=O)C(=O)O	digested		not with MT3-MMP	digested		
CC[C@H](C)[C@H](NC(=O)[C@H](CS)NC(=O)[C@H](CCSC)NC(=O)[C@H](CCC(N)=O)NC(=O)[C@H](CCC(=O)O)NC(=O)[C@@H](NC(=O)[C@@H](NC(=O)[C@H](CCCNC(=N)N)NC(=O)[C@H](CCC(=O)O)NC(=O)[C@H](CCSC)NC(=O)[C@H](CCSC)NC(=O)[C@H](CCCCN)NC(=O)[C@@H](NC(=O)[C@H](CC(=O)O)NC(=O)[C@@H](NC(=O)[C@H](CCC(=O)O)NC(=O)[C@@H](NC(=O)[C@H](Cc1ccccc1)NC(=O)[C@H](CC(N)=O)NC(=O)[C@H](CCC(=O)O)NC(=O)CNC(=O)[C@H](CCCCN)NC(=O)[C@@H](N)[C@@H](C)O)[C@@H](C)O)[C@@H](C)O)C(C)C)C(C)C)C(C)C)C(=O)N[C@H](C(=O)N[C@@H](CCC(N)=O)C(=O)N[C@@H](Cc1ccc(O)cc1)C(=O)N[C@@H](CCC(=O)O)C(=O)N[C@@H](CCCNC(=N)N)C(=O)N[C@@H](CCC(=O)O)C(=O)N[C@@H](CO)C(=O)N[C@@H](CCC(N)=O)C(=O)N[C@@H](C)C(=O)N[C@@H](Cc1ccc(O)cc1)C(=O)N[C@@H](Cc1ccc(O)cc1)C(=O)N[C@@H](CCC(N)=O)C(=O)N[C@@H](CCCNC(=N)N)C(=O)NCC(=O)N[C@@H](CO)C(=O)O)[C@@H](C)O		cleaved		cleaved	not inhibited	cleavage site by MT1-MMP (recombinant MT1-MMP): ^224Ala–^225Tyr; cleavage site by MMP-7 (Recombinant MMP-7; [2]): ^214Cys–^215Ile; effect of Cu^2+ on cleavage by MMP-7 (Recombinant MMP-7; [3]): inhibited
